Consider 1 sequence from US9724383B2, “Stabilized trimeric HIV-1 GP41 fusion inhibitor polypeptides comprising the N-terminal heptad repeat (NHR) and foldon (FD) trimerization motif” (New York Blood Center, Inc., priority 2009, dated 2017).

The series concerns the target CHR-peptide C34 (Human immunodeficiency virus type 1 group M subtype B, UniProt P04578). It counts as binding, HIV-1. The settings on record: thermal denaturation monitored at 222 nm, 20-98° C. On the procedure: All the N-peptides were diluted in ddH2O (pH 7.0) and all the C-peptides or the mixture of the N- and C-peptides were diluted in 50 mM sodium phosphate and 150 mM NaCl (PBS, pH 7.2) to a final concentration of 10 μM. The individual peptides and their mixtures were incubated in a 37° C. water bath for 0.5 h before testing. […] The α-helicity was calculated from the CD signal by dividing the mean residue ellipticity at 222 nm by the value expected for 100% helix formation (i.e., 33,000° cm^2 dmol^−1) according to previous studies. Thermal denaturation of the samples was monitored at 222 nm by applying a temperature gradient from 20° C. to 98° C. with a 2-degree interval, an equilibration time of 1.5 min, and an averaging time of 60 s. The midpoint of the thermal unfolding transition (Tm) values was calculated using Jasco software utilities as described previously.

Take “IEAQQHLLQLTVWGIKQLQARILAVERYGYIPEAPRDGQAYVRKDGEWVLLSTFL [N28Fd]”: the “Tm value of complex with C34” value stood at 62.2 °C.
